This is an account of results in ChEMBL document CHEMBL1153554, “Mechanisms by which the G333D mutation in human immunodeficiency virus type 1 Reverse transcriptase facilitates dual resistance to zidovudine and lamivudine” (Antimicrob Agents Chemother, 2008).

For this experiment, the target named is Human immunodeficiency virus type 1 reverse transcriptase (Human immunodeficiency virus 1) (UniProt Q72547). Nature of the experiment: Ratio of Kpol to Kd for wild type HIV1 LAI reverse transcriptase. The gist of the method: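 Pre-steady-state rapid quench: 400 nM active-site RT and 40 nM ³²P-P20/T57 DNA T/P were preincubated in 50 mM Tris-HCl pH 7.5, 50 mM KCl, then mixed with nucleotide in the same buffer containing 20 mM MgCl₂. Quenched with 0.3 M EDTA from 10 ms to 30 min, run on urea-PAGE. kobs came from single-exponential fits; kpol and Kd came from a hyperbolic fit versus nucleotide concentration.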

Regarding `Cc1cn([C@H]2C[C@H](O)[C@@H](COP(=O)(O)OP(=O)(O)OP(=O)(O)O)O2)c(=O)[nH]c1=O` [DEOXYTHYMIDINE_TRIPHOSPHATE], the Ratio was found to be 3.72.
